# Genome-wide point mutation profile of HIV-1: Vif

Protein: Vif of HIV-1 NL4-3, numbered from its first residue. The source prints no sequence; the chain below is taken from UniProt P12504, a closely related isolate, and fits the source at the 145 positions it covers.
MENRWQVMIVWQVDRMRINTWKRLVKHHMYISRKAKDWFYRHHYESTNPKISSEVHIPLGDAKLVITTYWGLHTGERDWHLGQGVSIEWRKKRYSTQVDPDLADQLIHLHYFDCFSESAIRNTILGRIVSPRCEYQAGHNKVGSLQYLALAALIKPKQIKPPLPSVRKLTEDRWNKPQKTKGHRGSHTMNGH
"Other frame" gives the effect on an overlapping gene as the source lists it; other overlaps (genes, RNA elements) are not shown.

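Random point mutant libraries of HIV-1 NL4-3, one for each of seven fragments, were passaged in CEM T lymphocytes. The RC index is the frequency of a change after passage round 2 divided by its frequency in the plasmid library.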

A higher RC index is a better tolerated change; approximate classes are lethal up to 0.1, attenuated to 0.2, tolerated above. A change reads original residue, position, new residue. The authors read an index above 1 as above wild type (1.9% of all changes in the genome). Since each clone held several changes (about five per kb), neutral changes can read low. Nucleotide positions follow pNL4-3.

With V7M (base G5059A, other frame integrase G277D) the assay gave 0.0831. K26E (base A5116G) read 0.0378. For D113G (base A5378G) the result was 0.0572. For W89C (base G5307T) the result was 0.0361. H110Q (base C5370A) read 0.0522.

For F115L (base T5385G) the result was 0.0377. For G60R (base G5218A) the result was 0.328. For Q12L (base A5075T, other frame integrase silent) the result was 0.0425. For I124K (base T5411A) the result was 0.0385. Q97L (base A5330T) read 0.0335.

With F115I (base T5383A) the assay gave 0.0240. For S32T (base T5134A) the result was 0.232. With R77K (base G5270A) the assay gave 0.377. W38R (base T5152C) read 0.0906. I87L (base A5299T) read 0.0359.

With R17W (base A5089T, other frame integrase E287V) the assay gave 0.0467. For D14G (base A5081G, other frame integrase silent) the result was 0.0642. Y40H (base T5158C) read 0.0604. With S116P (base T5386C) the assay gave 0.0671. With T20S (base A5098T) the assay gave 0.0407.

V85A (base T5294C) gave 0.0983. With G185R (base G5593A, other frame Vpr R12K) the assay gave 0.713. With C133S (base T5437A) the assay gave 0.0240. L24F (base A5112T) gave 0.141. For K63E (base A5227G) the result was 0.0628.

G138R (base G5452C) read 0.0318. With W38R (base T5152A) the assay gave 0.0517. N122Y (base A5404T) read 0.0744. F115L (base T5385A) gave 0.0275. V7E (base T5060A, other frame integrase silent) gave 0.0447.

For R23S (base A5109T) the result was 0.0348. I154K (base T5501A) gave 0.135. F112S (base T5375C) read 0.0564. For M16L (base A5086T, other frame integrase D286V) the result was 0.0334. R93S (base A5319T) read 0.0300.

I66V (base A5236G) read 0.0366. For A119D (base C5396A) the result was 0.0610. H43Q (base C5169A) gave 0.0253. With N19S (base A5096G) the assay gave 0.0725. With W11R (base T5071C, other frame integrase V281A) the assay gave 0.0534.

G138R (base G5452A) read 0.0917. V65A (base T5234C) read 0.0805. For V85L (base G5293C) the result was 0.222. With C114W (base T5382G) the assay gave 0.192. M29I (base G5127A) read 0.0822.

F112C (base T5375G) read 0.0416. For M29V (base A5125G) the result was 0.0784. With Q6K (base C5056A, other frame integrase A276E) the assay gave 0.105. With A151T (base G5491A) the assay gave 0.365. For S116T (base T5386A) the result was 0.0216.

For A149G (base C5486G) the result was 0.0333. For R17K (base G5090A, other frame integrase silent) the result was 0.190. With S32P (base T5134C) the assay gave 0.139. V25L (base G5113C) gave 0.0371. For W21C (base G5103T) the result was 0.122.

P100H (base C5339A) read 0.224. D104N (base G5350A) read 0.151. W38C (base G5154C) gave 0.116.

A selection of 6 entries from above:

{"mutation": "A119D", "base": "C5396A", "other frame": "none", "RC": 0.0610}
{"mutation": "V25L", "base": "G5113C", "other frame": "none", "RC": 0.0371}
{"mutation": "R93S", "base": "A5319T", "other frame": "none", "RC": 0.0300}
{"mutation": "M16L", "base": "A5086T", "other frame": "integrase D286V", "RC": 0.0334}
{"mutation": "C114W", "base": "T5382G", "other frame": "none", "RC": 0.192}
{"mutation": "G60R", "base": "G5218A", "other frame": "none", "RC": 0.328}

Data from the supplement of Al-Mawsawi et al. 2014, doi:10.1186/s12977-014-0124-6.